A mixed list of measured activities; the numbers were collected in NIAID ChemDB.

Common to all: growth or infection tests; agent: Mycobacterium bovis; read-out: MIC

Neighbouring rows are from separate reports. Blank or dashed fields: not listed here. a–b is a range or a potency band.

SMILES	strain	read by	value
CCOC(=O)c1ccc(NC(=S)Nc2ccc3c(c2)C(C)(C)CC(C)(C)S3)cc1	BCG		20–40 µg/mL
C/C=C/C/C=C/CCC(=O)[C@H]1O[C@H]1C(N)=O	BCG (PMV261::KASB)		0.2 µg/mL
CC1(C)CC(C)(C)c2cccc(NC(=S)Nc3ccc([N+](=O)[O-])cc3)c2O1	BCG		20–40 µg/mL
CCCCCCCCOC1CCOc2nc([N+](=O)[O-])cn2C1	rBCG-lux		>50 µg/mL
CN[C@H](CC(C)C)C(=O)N[C@H]1C(=O)N[C@@H](CC(N)=O)C(=O)N[C@H]2C(=O)N[C@H]3C(=O)N[C@H](C(=O)N[C@H](C(=O)O)c4cc(O)cc(O)c4-c4cc3ccc4O)[C@H](O)c3ccc(c(Cl)c3)Oc3cc2cc(c3O[C@@H]2O[C@H](CO)[C@@H](O)[C@H](O)[C@H]2O[C@H]2C[C@](C)(N)[C@H](O)[C@H](C)O2)Oc2ccc(cc2Cl)[C@H]1O		broth dilution	250 µg/mL
O=C(O)CCCCCCCCCC(=O)C1=CCCC1	BCG Pasteur	GFP	13.8 µM
C=C/C(C)=C/[C@@]1(C)SC(=O)C(C)=C1O	BCG (PMV261::KASA)		80 µg/mL
C[C@]1(COc2ccc(N3CCC(Oc4ccc(OC(F)(F)F)cc4)CC3)cc2)Cn2cc([N+](=O)[O-])nc2O1	BCG/TOKYO		0.012 µg/mL
O=[N+]([O-])c1cn2c(n1)OC[C@@H](OCc1ccccc1)C2	rBCG-lux		8 µg/mL
COc1cc(CC(C)C(C)Cc2ccc3c(c2)OCO3)ccc1O	BCG	resazurin	128 µM
CCc1cc(C(N)=S)ccn1	BCG (PMV261::KASB)		2 µg/mL
CCCCOc1ccc(NC(=S)Nc2ccc(SCC(C)C)cc2)cc1	BCG		0.5 µg/mL
CCCCCCCCO[C@@H]1COc2nc([N+](=O)[O-])cn2C1	rBCG-lux		1 µg/mL
COC(=O)N1CCc2c(OC)c(OC)c(O)c3c2[C@@H]1Cc1cc2c(cc1-3)OCO2	BCG	resazurin	256 µM
COc1ccc2c(c1NC(=S)NC(=O)c1ccc([N+](=O)[O-])cc1)C(C)(C)COC2(C)C	BCG		20–40 µg/mL
NNC(=O)c1ccncc1	BCG (PMV261)		0.06 µg/mL
CC(C)CCOc1ccc(NC(=S)Nc2ccc(Cc3ccccc3)cc2)cc1	BCG		1.75 µg/mL
CC(C)CCOc1ccc(NC(=S)Nc2ccc(OCCC(C)C)cc2)cc1	BCG (PMV261::KASA)		0.25 µg/mL
CC(C)CCOc1ccc(NC(=S)Nc2ccc(OCCC(C)C)cc2)cc1	BCG		0.5–1 µg/mL
CCCCCC(=O)N[C@@H]1COc2nc([N+](=O)[O-])cn2C1	rBCG-lux		2 µg/mL
CCOC(=O)CCCCCCCCCCCC[C@H]1C=CCC1	BCG Pasteur	GFP	0.26 µM
CCCCCCCCO[C@H]1COc2nc([N+](=O)[O-])cn2C1	rBCG-lux		8 µg/mL
Cc1cc(=O)n([C@@H]2O[C@H](CO)C3CC(=S)OC32)c(=O)[nH]1	BCG		500 µg/mL
CCCCCCCCOCCn1cc([N+](=O)[O-])nc1OC	rBCG-lux		≥25 µg/mL
CCCCCCCCC(=O)N[C@@H]1COc2nc([N+](=O)[O-])cn2C1	rBCG-lux		6 µg/mL

2 of the rows above, restated:

SMILES,strain,read by,value
CC(C)CCOc1ccc(NC(=S)Nc2ccc(Cc3ccccc3)cc2)cc1,BCG,,1.75 µg/mL
O=C(O)CCCCCCCCCC(=O)C1=CCCC1,BCG Pasteur,GFP,13.8 µM